We go through one substance from patent publication US20060111324A1, “(+)-Ttrans-isomers of (1-phosphonomethoxy-2-alkylcyclopropyl)methyl nucleoside derivatives, process for the preparation of stereoisomers thereof, and use of antiviral agents thereof” (LG Life Sciences, priority 2002, published 2006).

This is a selection: effects in other tests are not listed, and their absence says nothing. Some results are limits rather than exact numbers.

One data set concerns Hepatitis B Virus (HBV). In words: Inhibition of hepatitis B virus replication in HepG2.2.15 cells, quantitative PCR of culture medium. Type of data set: cell-based. Particulars: read-out: EC50 (μM) in HBV, 10 days drug treatment, HBV DNA in medium by PCR.
The subject of another data set is HepG2.2.15 cell. In words: Determination of cytotoxicity (MTT) in HepG2.2.15 cells. The conditions noted are these: read-out: CC50 (μM) in HepG2.2.15, 10th day of drug treatment.

A word on the EC50: it is the concentration giving half of the maximal effect. What is called CC50 is the concentration giving 50% cytotoxicity. As for “({(±)-trans-1-[(6-amino-9H-purine-9-yl)methyl]-2-ethylcyclopropyl}oxy) methylphosphonic acid”, the EC50 in the data set with Hepatitis B Virus (HBV) was over 30 µM. The CC50 in the data set with HepG2.2.15 cell is over 1000 µM.
